Reference: patent publication US20240016718A1 (priority 2020, published 2024)

System: sebum levels on the epidermis
Experiment: Sebum level on the epidermis (sebum collected with glass cone and weighed)
Conditions: Rhino mice, day 15; Dysport 0.1, 0.3, 1 U/mouse single i.d. (groups 3-5); Adapalene gel 0.1% topical daily (group 2)

SMILES: COc1ccc(-c2ccc3cc(C(=O)O)ccc3c2)cc1C12CC3CC(CC(C3)C1)C2 [Adapalene]
- Change in level of sebum on back skin versus vehicle: decrease
